This data set has as its target T1, OmpR-His6 (Yersinia enterocolitica Ye9) (UniProt P74982).
T1 sequence (looked up): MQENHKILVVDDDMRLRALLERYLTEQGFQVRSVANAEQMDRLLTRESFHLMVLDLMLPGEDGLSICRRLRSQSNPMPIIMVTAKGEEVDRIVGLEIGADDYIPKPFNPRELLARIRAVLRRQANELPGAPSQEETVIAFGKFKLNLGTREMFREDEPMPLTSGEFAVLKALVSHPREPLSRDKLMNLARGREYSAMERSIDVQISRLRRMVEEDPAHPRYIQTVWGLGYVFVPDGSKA
Briefly: EMSA. The following applies: 50 mM Tris-HCl pH 8.0, 100 mM KCl, 1 mM EDTA, 1 mM DTT, 20 mM MgCl2, 12% glycerol, 100 ug/mL BSA, 0.1% Triton X-100, 22 C, 15 min, 0.05 or 0.3 pmol DNA in 10 uL, recombinant protein, residues 1-239, protein details: N-terminal His6, probe letters rebuilt from the primers and the genome. In general terms: In EMSA bound probe runs differently from free probe, usually more slowly.

Setting [1] is: 304-bp 16S rDNA present, fewer complexes than F1234, at 1.31 uM.

Tags and fusion partners may be left off the protein sequences shown. The exact form of at least one protein or probe is not confirmed.

Turning to “CGTTGCTTCTATCCCTCTGGTTATACTCTGTTAAGCCACCCACAGATCCGCACTTTCATCCGTGCAAAATGAAAATAAACTGCTACAAATTTGTAACCTTATACTTTGCAGTCATATACTTAAATTATGCAACAATCCCATTCATCAATACATTGCATGATTAATCGGGCAAAGTGTGCAATTATATCTTTGTTAACAACCACGGTTTTCATTTGGGGCTAGCAGTTCTATAATGAGACGCAATTGAGAATATTGCGCCACGGATGTCATAGGCTGAACAGCCTTAATTTGAATCGATAGTAACAGGACTGAATCCGCATG (double strand) [F234]”, under setting [1], the binding result is on record as “binds”. Regarding “GCGGAATCTGTCCTGTTACTAAGCGGTTCACTTCATTAGAAGAAGTGACAGAATTTGCTCTTGAGATAATGCGTATCATTATAGAATTGCCACGCCTAAATGAAAACCACAAGTCCCTGGCAAATATTGTTAATAAAAACGTGGCACAGCTTACATTTACAACGGCAAGGCCACTTGAACACCGGGACATTGTACAGGTACAACAGCAAAAGTTACAAATTTGTAGCAATTATTTTGATTGGCATTATCTATTAATACGGCGTAGACATGAGTCTACGCCGCATCACA (double strand) [FEc]”, the binding result (211-bp 16S rDNA present, complexes from 0.65 uM, multiple bands up to 3.9 uM) was “binds”. Consider “TGACAAATGAGCGCGTTGAAGCTTGGGTAAAACAGATCAGCGAAGAACTGAATCTGGCCGAAATTACCGGTTAATTTGTCATGTCGGAAACGCGAGGATGAAATTTAATATTGCCACGCGTTTCCGTTGCTTCTATCCCTCTGGTTATACTCTGTTAAGCCACCCACAGATCCGCACTTTCATCCGTGCAAAATGAAAATAAACTGCTACAAATTTGTAACCTTATACTTTGCAGTCATATACTTAAATTATGCAACAATCCCATTCATCAATACATTGCATGATTAATCGGGCAAAGTGTGCAATTATATCTTTGTTAACAACCACGGTTTTCATTTGGGGCTAGCAGTTCTATAATGAGACGCAA (double strand) [F123]”, for which the binding result under setting [1] is on record as “binds”. Consider “TGACAAATGAGCGCGTTGAAGCTTGGGTAAAACAGATCAGCGAAGAACTGAATCTGGCCGAAATTACCGGTTAATTTGTCATGTCGGAAACGCGAGGATGAAATTTAATATTGCCACGCGTTTCCGTTGCTTCTATCCCTCTGGTTATACTCTGTTAAGCCACCCACAGATCCGCACTTTCATCCGTGCAAAATGAAAATAAACTGCTACAAATTTGTAACCTTATACTTTGCAGTCATATACTTAAATTATGCAACAATCCCATTCATCAATACATTGCATGATTAATCGGGCAAAGTGTGCAATTATATCTTTGTTAACAACCACGGTTTTCATTTGGGGCTAGCAGTTCTATAATGAGACGCAATTGAGAATATTGCGCCACGGATGTCATAGGCTGAACAGCCTTAATTTGAATCGATAGTAACAGGACTGAATCCGCATG (double strand) [F1234]”, for which the binding result (four shifted bands from 0.65 to 3.25 uM, with or without 304-bp 16S rDNA) is “binds”.

These data come from PMC7867234.
